# Reference: article PMC12380353, “MK-8527 is a novel inhibitor of HIV-1 reverse transcriptase translocation with potential for extended-duration dosing” (PLOS Biology, 2025)
# A number of entries come with more than one value. The other results are left out here. The source may hold further records. Values that stand side by side differ, and nothing given here explains why; they may come from other doses, times, organisms or constructs than stated.
# Assay: MK-8527-TP in PBMCs of rhesus monkeys after oral dosing
# Conditions: oral MK-8527 50 mg/kg
structure (smiles),measurement,value
C#C[C@]1(COP(=O)(O)OP(=O)(O)OP(=O)(O)O)O[C@@H](n2ccc3c(N)nc(Cl)nc32)C[C@@H]1O [MK-8527-TP],Intracellular half-life in PBMCs,approximately 48 h and 48 h
